From paper PMC5615192 (mBio, 2017)

Experiments:
[1] = biological target: HPV58 L1 VLP (human papillomavirus type 58, UniProt P26535); test: cell-based or functional assay
[2] = biological target: T1, HPV59 L1 VLP (human papillomavirus type 59); test: cell-based or functional assay
T1 chain: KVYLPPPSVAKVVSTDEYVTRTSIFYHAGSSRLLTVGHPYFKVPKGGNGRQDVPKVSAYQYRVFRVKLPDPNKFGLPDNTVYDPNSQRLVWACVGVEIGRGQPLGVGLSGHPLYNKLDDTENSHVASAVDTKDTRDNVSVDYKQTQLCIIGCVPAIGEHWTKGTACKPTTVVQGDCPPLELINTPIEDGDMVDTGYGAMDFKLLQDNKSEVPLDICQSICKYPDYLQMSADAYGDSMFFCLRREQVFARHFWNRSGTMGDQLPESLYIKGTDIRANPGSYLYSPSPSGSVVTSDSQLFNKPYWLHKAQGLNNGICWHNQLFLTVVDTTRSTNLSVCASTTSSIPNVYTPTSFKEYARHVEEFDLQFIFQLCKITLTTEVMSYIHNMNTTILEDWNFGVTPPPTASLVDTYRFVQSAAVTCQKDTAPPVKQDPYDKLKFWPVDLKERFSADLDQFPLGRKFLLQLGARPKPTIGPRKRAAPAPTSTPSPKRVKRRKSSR

[3] = biological target: T2, HPV59 L1 pentamer (human papillomavirus type 59); test: crystal structure; details: both partners purified
T2 construct: also called HPV59p; HPV59 pentamer
T2 chain: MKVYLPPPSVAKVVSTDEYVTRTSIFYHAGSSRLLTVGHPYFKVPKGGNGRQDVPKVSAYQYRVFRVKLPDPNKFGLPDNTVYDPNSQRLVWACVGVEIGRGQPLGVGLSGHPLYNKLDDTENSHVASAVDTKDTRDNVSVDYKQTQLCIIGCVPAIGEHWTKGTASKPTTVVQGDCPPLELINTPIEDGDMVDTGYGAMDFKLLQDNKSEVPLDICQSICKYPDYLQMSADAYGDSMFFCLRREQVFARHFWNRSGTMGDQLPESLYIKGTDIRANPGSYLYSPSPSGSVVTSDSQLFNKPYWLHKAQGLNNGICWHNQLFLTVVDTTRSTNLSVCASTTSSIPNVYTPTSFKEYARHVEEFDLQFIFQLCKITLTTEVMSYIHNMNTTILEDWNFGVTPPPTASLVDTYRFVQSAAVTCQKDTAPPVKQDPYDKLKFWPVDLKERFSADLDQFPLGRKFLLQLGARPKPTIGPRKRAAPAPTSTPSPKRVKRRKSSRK

[4] = biological target: MAb A12A3 [mouse]; test: indirect ELISA

B1: MAb A12A3 (antibody, V domains shown)
VH: EVQLQQSGAELVRPGALVKLSCKASGFNIKDYYMHWVKQRPEQGLEWIGWIDPENGKTIYDPRFRGKASITADTSSNTAYLQLSSLTSEDAAVYYCATSNYRYDRSFDYWGQGTTLTVSA
VL: DIQMTQSPSSLFASLGGKVTITCKASQDINKYIAWFQHKPGKGPRLLIHYTFTLQPGIPSRFSGSGSGRDYSFSISNLEPEDIATYYCLQYHNLYTFGGGTKLEIK
[1]
  IC50 of neutralisation of HPV58 pseudovirus (L1/L2 PsV, 293FT cells, GFP by flow cytometry): 0.0017 µg/mL

B2: A12A3 Fab (Fab, V domains shown)
VH: B1 VH
VL: B1 VL
notes: also called Fab fragment of A12A3; source: papain digestion of MAb A12A3, purified with DEAE-5PW exchange
[1]
  IC50 of neutralisation of HPV58 pseudovirus (L1/L2 PsV, 293FT cells, GFP by flow cytometry): 0.0638 µg/mL

B3: MAb 28F10 (antibody, V domains shown)
VH: DVKLVESGGGLVKPGGSLKLSCAASGFPFSDYTMSWIRQTPEKRLEWVASISSGGTYTYYPDTVKGRFTISRDNAKNTLYLQMSSLKSEDTAMFYCTRASPYYDYDEGYMDYWGQGTSVTVSS
VL: DVVMTQTPLSLPVSLGDQASISCRSSQSLVHSNGNTYLHWYLQKSGQSPKLLIYKVSNRFSGVPDRFSGSGSGTDFTLKISRVEAEDLGVYFCSQSTHVPFTFGAGTKLELK
[2]
  IC50 of neutralisation of HPV59 WT PsV (experiment of Fig. 7E): 0.0149 µg/mL
  IC50 of neutralisation of HPV59 pseudovirus (L1/L2 PsV, 293FT cells, GFP by flow cytometry): 0.0143 µg/mL

B4: 28F10 Fab (Fab, V domains shown)
VH: B3 VH
VL: B3 VL
notes: also called Fab fragment of 28F10; source: papain digestion of MAb 28F10, purified with DEAE-5PW exchange
[3]
  stoichiometry N: 5 Fab per pentamer
[2]
  IC50 of neutralisation of HPV59 pseudovirus (L1/L2 PsV, 293FT cells, GFP by flow cytometry): 0.739 µg/mL

B5: HPV58 L1 VLP mutant S168A [human papillomavirus type 58] / MAb A12A3 [mouse] (protein)
parent chain 1: EVQLQQSGAELVRPGALVKLSCKASGFNIKDYYMHWVKQRPEQGLEWIGWIDPENGKTIYDPRFRGKASITADTSSNTAYLQLSSLTSEDAAVYYCATSNYRYDRSFDYWGQGTTLTVSAKTTPPSVYPLAPGCGDTTGSSVTSGCLVKGYFPEPVTVTWNSGSLSSSVHTFPALLQSGLYTMSSSVTVPSSTWPSQTVTCSVAHPASSTTVDKKL
parent chain 2: DIQMTQSPSSLFASLGGKVTITCKASQDINKYIAWFQHKPGKGPRLLIHYTFTLQPGIPSRFSGSGSGRDYSFSISNLEPEDIATYYCLQYHNLYTFGGGTKLEIKRADAAPTVSIFPPSSEQLTSGGASVVCFLNNFYPKDINVKWKIDGSERQNGVLNSWTDQDSKDSTYSMSSTLTLTKDEYERHNSYTCEATHKTSTSPIVKSFNRNEC
parent chain 3: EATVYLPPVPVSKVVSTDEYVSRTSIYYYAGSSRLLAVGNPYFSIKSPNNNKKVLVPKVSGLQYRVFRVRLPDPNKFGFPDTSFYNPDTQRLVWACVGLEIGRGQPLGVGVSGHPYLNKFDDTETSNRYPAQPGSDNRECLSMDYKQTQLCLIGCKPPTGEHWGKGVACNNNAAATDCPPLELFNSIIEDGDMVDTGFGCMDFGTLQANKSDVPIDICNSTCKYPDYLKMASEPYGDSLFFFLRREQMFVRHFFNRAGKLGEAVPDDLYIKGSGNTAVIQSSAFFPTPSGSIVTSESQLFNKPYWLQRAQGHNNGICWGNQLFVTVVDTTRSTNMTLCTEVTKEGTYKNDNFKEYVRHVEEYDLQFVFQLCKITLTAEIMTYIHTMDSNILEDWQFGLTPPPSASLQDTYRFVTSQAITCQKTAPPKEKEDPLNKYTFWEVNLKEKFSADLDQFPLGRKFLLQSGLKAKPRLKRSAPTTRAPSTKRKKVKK
[4]
  EC50: 0.0099 µg/mL

B6: HPV58 L1 VLP mutant N170A [human papillomavirus type 58] / MAb A12A3 [mouse] (protein)
parent chain 1: B5 parent chain 1
parent chain 2: B5 parent chain 2
parent chain 3: B5 parent chain 3
[4]
  EC50: 0.0109 µg/mL

B7: HPV58 L1 VLP mutant D154A [human papillomavirus type 58] / MAb A12A3 [mouse] (protein)
parent chain 1: B5 parent chain 1
parent chain 2: B5 parent chain 2
parent chain 3: B5 parent chain 3
[4]
  EC50: 0.0237 µg/mL

B8: HPV58 L1 VLP mutant Q165A [human papillomavirus type 58] / MAb A12A3 [mouse] (protein)
parent chain 1: B5 parent chain 1
parent chain 2: B5 parent chain 2
parent chain 3: B5 parent chain 3
[4]
  EC50: 0.0149 µg/mL

B9: HPV58 L1 VLP mutant N308A [human papillomavirus type 58] / MAb A12A3 [mouse] (protein)
parent chain 1: B5 parent chain 1
parent chain 2: B5 parent chain 2
parent chain 3: B5 parent chain 3
[4]
  EC50: 0.0194 µg/mL
